# Experimental data as given in publication PMC12040169 (PLOS Biology, 2025).
# Test system: HeLa
# Conditions: bulk resorufin, single well; 28.5 h, 10 µM
row,SMILES,% viability [%]
1,COc1cc(C(=O)OC2CN3CCC2CC3)cc(OC)c1OC (stereo not shown),1.081
2,Nc1nonc1OCCOc1nonc1N,0.9001
3,O=C1c2no[n+]([O-])c2C(=O)c2no[n+]([O-])c21,0.9857
4,CN1/C(=N/C#N)NP(=O)(O)C1(C)C,1.019
